Source: ChEMBL document CHEMBL4622924, “Development of Conformationally Constrained α-RgIA Analogues as Stable Peptide Antagonists of Human α9α10 Nicotinic Acetylcholine Receptors” (2020)

Sequences of proteins named here, by UniProt entry; tags and fusion partners are left off. Residues count along the entry.
UniProt Q9UGM1, 23-479 limits assumed: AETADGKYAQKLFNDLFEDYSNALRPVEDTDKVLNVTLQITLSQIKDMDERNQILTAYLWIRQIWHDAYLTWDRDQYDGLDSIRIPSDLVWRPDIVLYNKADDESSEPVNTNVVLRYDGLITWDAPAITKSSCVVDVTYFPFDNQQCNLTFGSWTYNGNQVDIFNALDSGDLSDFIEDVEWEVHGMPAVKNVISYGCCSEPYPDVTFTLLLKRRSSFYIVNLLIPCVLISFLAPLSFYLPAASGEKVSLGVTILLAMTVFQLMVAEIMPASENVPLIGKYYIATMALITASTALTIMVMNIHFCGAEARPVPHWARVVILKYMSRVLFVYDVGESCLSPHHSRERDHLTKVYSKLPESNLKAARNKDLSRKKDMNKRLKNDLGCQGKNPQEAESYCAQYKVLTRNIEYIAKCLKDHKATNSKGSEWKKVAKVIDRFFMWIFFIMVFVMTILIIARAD
UniProt Q9GZZ6, 25-450 limits assumed: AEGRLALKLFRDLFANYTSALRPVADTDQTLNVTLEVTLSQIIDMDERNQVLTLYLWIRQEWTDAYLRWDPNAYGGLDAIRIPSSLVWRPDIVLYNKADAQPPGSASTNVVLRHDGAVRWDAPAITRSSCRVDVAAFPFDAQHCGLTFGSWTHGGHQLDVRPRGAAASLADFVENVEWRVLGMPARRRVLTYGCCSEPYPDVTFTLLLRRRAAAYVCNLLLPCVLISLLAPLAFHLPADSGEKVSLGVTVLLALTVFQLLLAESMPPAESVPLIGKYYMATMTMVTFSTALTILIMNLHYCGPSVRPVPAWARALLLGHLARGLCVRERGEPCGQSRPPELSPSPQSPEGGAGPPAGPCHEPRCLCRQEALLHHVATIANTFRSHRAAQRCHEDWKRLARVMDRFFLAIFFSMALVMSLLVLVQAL

What was measured:
[1] = Stability in 90% human serum assessed as proteolytic degradation at 0.1 mg/ml measured up to 24 hrs by RP-HPLC analysis
[2] = target: Neuronal acetylcholine receptor; alpha9/alpha10 (Homo sapiens, UniProt Q9UGM1+Q9GZZ6); assay: Antagonist activity at human alpha9alpha10 nAChR expressed in Xenopus laevis oocytes assessed as inhibition of Ach-induced response measured after 5 mins by two electrode voltage-clamp assay

SMILES	Stability [1]	IC50 [2] [nM]
C[C@@H](O)[C@@H]1NC(=O)[C@@H]2CSSC[C@@H]3NC(=O)[C@H](CCC(N)=O)NC(=O)[C@H](Cc4ccc(O)c(I)c4)NC(=O)[C@H](CCCNC(=N)N)NC(=O)[C@H](CSSC[C@H](NC(=O)CNC(=O)[C@@H](N)CCC(=O)NCCCC[C@H](C(=O)O)NC(=O)[C@H](Cc4ccc(O)cc4)NC3=O)C(=O)N2)NC(=O)[C@H](CCCNC(=N)N)NC(=O)[C@@H]2CCCN2C(=O)[C@H](CC(=O)O)NC1=O	Stable	
C[C@@H](O)[C@H](NC(=O)[C@H](CS)NC(=O)[C@H](CS)NC(=O)CN)C(=O)N[C@@H](CC(=O)O)C(=O)N1CCC[C@H]1C(=O)N[C@@H](CCCNC(=N)N)C(=O)N[C@@H](CS)C(=O)N[C@@H](CCCNC(N)=O)C(=O)N[C@@H](Cc1ccc(O)c(I)c1)C(=O)N[C@@H](CCC(N)=O)C(=O)N[C@@H](CS)C(=O)N[C@@H](Cc1ccc(O)cc1)C(=O)O	Stable	1.5
